The test system of the assay is S. aureus Newman. Kind of assay: Eap, Emp vaccination, murine renal abscess model (FIG. 5). The note with it: challenge 3×10^7 CFU S. aureus Newman, FIG. 5C; for protection against staphylococcal infection: P<0.05; for reduction in staphylococcal load: immunized with protein emulsified in CFA.

B1: Eap: recombinant His-tagged staphylococcal envelope associated protein Eap (SEQ ID NO:4) purified from E. coli, vaccine antigen (protein, listed as Staphylococcus aureus)
chain: MKFKSLITTTLALGVLASTGANFNNNEASAAAKPLDKSSSSLHHGYSKVHVPYAITVNGTSQNILSSLTFNKNQNISYKDLEDRVKSVLKSDRGISDIDLRLSKQAKYTVYFKNGTKKVIDLKAGIYTADLINTSEIKAININVDTKKQVEDKKKDKANYQVPYTITVNGTSQNILSNLTFNKNQNISYKDLEDKVKSVLESNRGITDVDLRLSKQAKYTVNFKNGTKKVIDLKSGIYTANLINSSDIKSININVDTKKHIENKAKRNYQVPYSINLNGTSTNILSNLSFSNKPWTNYKNLTSQIKSVLKHDRGISEQDLKYAKKAYYTVYFKNGGKRILQLNSKNYTANLVHAKDVKRIEITVKTGTKAKADRYVPYTIAVNGTSTPILSDLKFTGDPRVGYKDISKKVKSVLKHDRGIGERELKYAKKATYTVHFKNGTKKVININSNISQLNLLYVQDIKKIDIDVKTGTKAKADSYVPYTIAVNGTSTPILSKLKISNKQLISYKYLNDKVKSVLKSERGISDLDLKFAKQAKYTVYFKNGKKQVVNLKSDIFTPNLFSAKDIKKIDIDVKQYTKSKKNK
modifications: His-tag
Regarding B1, the “protection against staphylococcal infection” value is on record as “significant protection” and the “reduction in staphylococcal load” value is “two”.

B2: Emp: recombinant His-tagged staphylococcal envelope associated protein Emp (SEQ ID NO:2) purified from E. coli, vaccine antigen (protein, listed as Staphylococcus aureus)
chain: MKKKLLVLTMSTLFATQIMNSNHAKASVTESVDKKFVVPESGINKIIPAYDEFKNSPKVNVSNLTDNKNFVASEDKLNKIADSSAASKIVDKNFVVPESKLGNIVPEYKEINNRVNVATNNPASQQVDKHFVAKGPEVNRFITQNKVNHHFITTQTHYKKVITSYKSTHVHKHVNHAKDSINKHFIVKPSESPRYTHPSQSLIIKHHFAVPGYHAHKFVTPGHASIKINHFCVVPQINSFKVIPPYGHNSHRMHVPSFQNNTTATHQNAKVNKAYDYKYFYSYKVVKGVKKYFSFSQSNGYKIGKPSLNIKNVNYQYAVPSYSPTHYVPEFKGSLPAPRV
modifications: His-tag
As to B2, the “protection against staphylococcal infection” value was “significant protection” and the “reduction in staphylococcal load” value came out at 2.5 log.

The record behind these values is US20110262477A1 (priority 2008, published 2011).
